Experimental findings from US20250320281A1 are described below.

What all share (experiment): cell-based or functional assay
For assay [1], the target named is Env of the clade A HIV-1 pseudoviruses of the 162-pseudovirus panel (n = 26).
Assay [2] concerns the target Env of the clade AG HIV-1 pseudoviruses of the 162-pseudovirus panel (n = 10).
Assay [3] has as its target Env of the clade B HIV-1 pseudoviruses of the 162-pseudovirus panel (n = 31).
For assay [4], the target named is Env of the clade F HIV-1 pseudoviruses of the 162-pseudovirus panel (n = 15).
Assay [5] deals with 162-pseudovirus panel representing all major circulating HIV-1 subtypes.
The target of assay [6] is Env of all HIV-1 pseudoviruses of the cross-clade 162-pseudovirus panel (n = 162).
Assay [7] deals with Env of the clade AE HIV-1 pseudoviruses of the 162-pseudovirus panel (n = 10).
The target in assay [8] is Env of the clade D HIV-1 pseudoviruses of the 162-pseudovirus panel (n = 25).
Assay [9] concerns the target Env of the clade G HIV-1 pseudoviruses of the 162-pseudovirus panel (n = 15).

B1: 5147_N06 (PGT-130) (antibody, V domains shown)
VH: QVQLQESGPGLVKPAETLSLTCSVSGESINTGHYYWGWVRQVPGKGLEWIGHIHYTTAVLHNPSLKSRLTIKIYTLRNQITLRLSNVTAADTAVYHCVRSGGDILYYYEWQKPHWFSPWGPGIHVTVSS
VL: QSALTQPPSASGSLGQSVTISCNGTSSDIGGWNFVSWYQQFPGRAPRLIIFEVNKRPSGVPGRFSGSKSGNSASLTVSGLQSDDEGQYFCSSLFGRWDVVFGGGTKLTVL
In the case of B1, the Median IC50 (µg/ml) against viruses neutralized with an IC50 <50 µg/ml was found to be 0.09 µg/mL in [1], 0.04 µg/mL in assay [2], 0.09 µg/mL in assay [3] and 0.07 µg/mL in assay [4].

B2: 5123_A06 (PGT-125) (antibody, V domains shown)
VH: QSQLQESGPRLVEASETLSLTCNVSGESTGACTYFWGWVRQAPGKGLEWIGSLSHCQSFWGSGWTFHNPSLKSRLTISLDTPKNQVFLKLTSLTAADTATYYCARFDGEVLVYNHWPKPAWVDLWGRGIPVTVSS
VL: QSALTQPPSASGSPGQSITISCNGTATNFVSWYQQFPDKAPKLIIFGVDKRPPGVPDRFSGSRSGTTASLTVSRLQTDDEAVYYCGSLVGNWDVIFGGGTTLTVL
As to B2, the Median IC50 (µg/ml) against viruses neutralized with an IC50 <50 µg/ml is 0.04 µg/mL in assay [5]; 0.04 µg/mL in assay [6]; 0.03 µg/mL in assay [7]; 0.01 µg/mL in assay [2]; 0.02 µg/mL in assay [3]; 0.09 µg/mL in assay [8]. Besides, the Median IC50 (µg/ml) against viruses neutralized with an IC50 <50 µg/ml in assay [4] is 0.04 µg/mL; in assay [9], 0.02 µg/mL.

B3: 5141_B17 (PGT-126) (antibody, V domains shown)
VH: QPQLQESGPGLVEASETLSLTCTVSGDSTAACDYFWGWVRQPPGKGLEWIGGLSHCAGYYNTGWTYHNPSLKSRLTISLDTPKNQVFLKLNSVTAADTAIYYCARFDGEVLVYHDWPKPAWVDLWGRGTLVTVSS
VL: QSALTQPPSASGSPGQSISISCTGTSNRFVSWYQQHPGKAPKLVIYGVNKRPSGVPDRFSGSKSGNTASLTVSGLQTDDEAVYYCSSLVGNWDVIFGGGTKLTVL
For the molecule B3, the Median IC50 (µg/ml) against viruses neutralized with an IC50 <50 µg/ml amounted to 0.04 µg/mL in [5]; 0.04 µg/mL in assay [6]; 0.01 µg/mL in assay [1]; 0.03 µg/mL in [2]; 0.02 µg/mL in [3]; 0.04 µg/mL in assay [8]. This molecule also registered a Median IC50 (µg/ml) against viruses neutralized with an IC50 <50 µg/ml in assay [4] of 0.05 µg/mL.
